Like-named read-outs stand apart in the source and are kept apart here.
Legend:
CD8+ T cells [1] = conditions: cited from earlier work; for Restriction: T cell type (CD4 or CD8) recognizing the SARS-CoV-2 epitope
CD8+ T cells [2] = assay: Meta-analysis of published SARS-CoV-2 CD8 T cell epitope data curated in the IEDB (25 studies); type: cell-based, human; conditions: SARS-CoV-2-derived CD8 epitopes; dominant = recognized by 3 or more donors/different studies

Question: With 1793 (SALWEIQQVV) [compound 1793] as the substance, how does the Dominant (CD8+ T cells [1]; CD8R (D) megapool epitopes, dominant = recognized by 3 or more donors/different studies) read?
Answer: Yes (more dominant epitopes are defined by being recognized by 3 or more donors/different studies)

Question: With 904 (SALWEIQQVV) [compound 904] as the substance, how does the Dominant (CD8+ T cells [2]) read?
Answer: Yes (more dominant epitopes are defined by being recognized by 3 or more donors/different studies)

Question: And the Restriction (CD8+ T cells [1])?
Answer: CD8

Question: With 1046 (LEIPRRNVATL) [compound 1046] as the substance, how does the Restriction (CD8+ T cells [1]) read?
Answer: CD8

Question: With 3028 (SALWEIQQVV) [compound 3028] as the substance, how does the Dominant (CD8+ T cells [1]; CD8RE megapool peptides (non-spike SARS-CoV-2 antigens), dominant epitope Yes/No) read?
Answer: Yes (more dominant epitopes are defined by being recognized by 3 or more donors/different studies)
